One experiment addresses Histidine--tRNA ligase (Leishmania infantum, UniProt A4I591). As to the kind of experiment: Leishmania infantum Histidine tRNA synthetase (LdHisRS). In kind it is functional.
A short description of experiment [1]: In vitro enzyme assay to detect hydrolysis of chlorophenol red-beta-D-[…] directly proportional to the number of Toxoplasma stably expressing beta-galactosidase. Format: functional, organism-based, Toxoplasma gondii.

Sequences of proteins named here, by UniProt entry; tags and fusion partners are left off. Residues count along the entry.
UniProt A4I591, 1-473: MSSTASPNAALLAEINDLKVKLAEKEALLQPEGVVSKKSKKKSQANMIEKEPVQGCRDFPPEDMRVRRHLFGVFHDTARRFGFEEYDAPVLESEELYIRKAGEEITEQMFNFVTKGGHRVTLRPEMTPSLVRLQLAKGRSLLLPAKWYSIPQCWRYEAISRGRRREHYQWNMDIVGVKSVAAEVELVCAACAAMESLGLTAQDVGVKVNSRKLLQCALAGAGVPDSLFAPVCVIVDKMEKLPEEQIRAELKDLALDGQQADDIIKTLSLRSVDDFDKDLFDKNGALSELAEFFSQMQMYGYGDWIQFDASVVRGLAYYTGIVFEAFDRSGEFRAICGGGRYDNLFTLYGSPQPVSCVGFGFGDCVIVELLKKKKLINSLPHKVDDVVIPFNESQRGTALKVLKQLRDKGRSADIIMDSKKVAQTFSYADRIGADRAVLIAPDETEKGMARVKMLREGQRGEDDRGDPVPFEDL

In ChEMBL document CHEMBL3988442, “University of Dundee, Small-Polar-MMV Screening Library” (2021) one finds pIC50 data, which are given here for three molecules.

Values joined by “and” are separate entries in the source; they are usually repeats but may differ in a detail not shown here. Equal entries are not always repeated. Some compounds may have been tested in ways that are not shown here.

On to `COc1ccc(NC2CCN(CCc3ccccc3)CC2)cc1OC`, for which the pIC50 on Histidine--tRNA ligase is 4.42 and 4.34. Same read-out and setting: in the case of `CCN1CCC(Nc2ccc(OC)c(OC)c2)CC1` it was 4.46 and 4.27. The molecule `COc1ccc(CN2CCC(Nc3ccc(Br)cc3)CC2)c(OC)c1` gave a pIC50 in experiment [1] of 5.03.
